# Screening data, single-dose tests

The values are deposited in ChEMBL (CHEMBL3988442, “University of Dundee, Small-Polar-MMV Screening Library” (2021)).

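Growth of Mycobacterium tuberculosis over 3 days (7H9 medium with glucose and tyloxapol); the read-out is not stated. Tested at 500 µM. Higher reads as more growth inhibition (inferred: compounds with an IC50 in retests scored well above the rest). Size under these conditions: about 18,000 compounds, about 1,400 of them at 50% or above in at least one test.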

Values are the deposited “Percent Effect”, in %. How 0% and 100% were set is not recorded. Most values in the screen are low, and negative values occur. This is part of a subset picked to be rich in strong results.

SMILES	Percent Effect
CN1CCN(C)C(CC(=O)NCc2ccoc2)C1 (stereo unspecified)	3.617
COCCNC(=O)CN1CCC(C)CC1	0.5368
CCCc1noc(CNc2ccccc2C(N)=O)n1	-5.187
CCCn1cnnc1C(C)NC(=O)c1cnc(O)cn1 (stereo unspecified)	-12.68
CNC(=O)c1cccc(NS(=O)(=O)c2ccccc2)c1	33.3
CCOC1CCN(C(=O)C(O)c2ccc(F)cc2)CC1 (stereo unspecified)	16.92
CC(Cn1cncn1)NCc1ccsc1 (stereo unspecified)	25.92
CNC(=O)CCC(C)(C)NC(=O)c1cnc(C)c(C)c1	-4.996
CC(=O)NC1CCN(C(C)C)CC1	-2.835
COCc1nn(Cc2cccc(C#N)c2)c(=O)o1	40.56
CCOc1cccc(CS(=O)(=O)Cc2cc(C)no2)n1	-5.475
Cc1cccc(OCCNC(=O)CCn2cncn2)c1	18.97
CCN1CCN(Cc2nc(C3CC3)no2)CC1	7.867
NCCNS(=O)(=O)c1ccc(F)c(C(F)(F)F)c1	79.86
O=C(c1ccccc1I)N1CCNCC1	18.94
NCc1ccc(CN2CCC(O)C2)cc1 (stereo unspecified)	-5.612
CN1CCC2(CCNCC2)C1=O	11.79
CCC(NC(=O)c1cccc(=O)[nH]1)c1nc(C)c[nH]1 (stereo unspecified)	11.69
NC(=O)c1cnc(NC2CCc3ccccc32)c(Cl)c1 (stereo unspecified)	86.6
N[C@H]1CC[C@H](Oc2ncccc2Cl)CC1	59.43
COc1cccc(Cl)c1Cn1cc(Cl)c(=O)[nH]c1=O	-11.2
CC(C)(C)NS(=O)(=O)c1ccccc1CN	20.3
c1cn(C2CCNC2)nn1 (stereo unspecified)	6.255
CC(C)(CO)NCc1ccc2c(c1)OCO2	-2.988
CC(C)(C)C(=O)N1CCN(CCCC#N)CC1	-1.287
CCS(=O)(=O)c1ccc(C(C)N)cc1 (stereo unspecified)	9.874
C1CC(OC2CCNCC2)C1	6.115
CC1CCC(NC(=O)c2ccc(S(N)(=O)=O)cc2)CC1 (stereo unspecified)	-2.101
Cc1cc(=O)[nH]c2ccc(S(N)(=O)=O)cc12	2.764
Nc1ccn(-c2ccc(C(F)(F)F)cn2)n1	29.88
CCS(=O)(=O)N(C)C1CCN(c2nc(C)ns2)CC1	18.38
CCN1CCN(C(=O)C2CCCOC2)c2ccccc21 (stereo unspecified)	81.85
Cc1cc(=O)[nH]c(C2(N)CCCC2)n1	11.52
CC(=O)Nc1ccccc1CN(C)CC(C)O (stereo unspecified)	8.398
CN1CCC(N2CCN(C)c3ccccc3C2)C1=O (stereo unspecified)	25.6
CSCC[C@H](N)C(=O)OC(C)(C)C	10.31
CC(C)COc1cncc(NC(C)CO)n1 (stereo unspecified)	73.26
Cc1cc(C)n(C2CNC2)n1	-6.521
O=C(CN1CCN(c2ccccc2)CC1)N1CCCC1	50.64
Cc1cc(C(=O)NCc2cccc(F)c2)no1	74.14
CC(C)COc1cncc(NC2CCN(C)C2=O)n1 (stereo unspecified)	12.09
CN(Cc1ncnn1C)C(=O)CCc1cccc(Cl)c1	41.76
Cc1csc(CCN)n1	56.42
CC1=C(C(=O)NCc2cccnc2)C(C)NC(=O)N1 (stereo unspecified)	-9.849
Cc1cc(C(=O)OC(C)c2ccccn2)cc(O)n1 (stereo unspecified)	-38.4
CCC1=NOC(CN2CCN(c3nc[nH]n3)CC2)C1 (stereo unspecified)	3.713
Cc1noc(C)c1CNC(=O)c1csc(S(N)(=O)=O)c1	64.63
NS(=O)(=O)N1CCN(Cc2ccccc2)CC1	4.382
CC(=O)N(Cc1noc(C(C)C)n1)C1CCNC1 (stereo unspecified)	10.77
COc1ccc(N2CCNCC2)cc1F	41.03
COc1cccc(N2CCCC(N)C2)c1 (stereo unspecified)	39.11
CCN(CC)c1ncccc1CNC(=O)C1CCC1	26.68
CNC(=O)c1cccc(NC(C)C(=O)NCC(C)C)c1 (stereo unspecified)	14.07
CCC(C(=O)Nc1cc2c(cc1C)OCO2)N(C)C (stereo unspecified)	69.29
CCc1nc2ccccc2n1CCN	15.53
CN(CC1CC1)C(=O)c1cccnc1-n1cccn1	5.965
Cn1cc(CNc2ccc(F)cc2)cn1	27.84

Some entries from above, unchanged:

Cc1cc(=O)[nH]c2ccc(S(N)(=O)=O)cc12 gave 2.764%.
C1CC(OC2CCNCC2)C1 gave 6.115%.
COCc1nn(Cc2cccc(C#N)c2)c(=O)o1 gave 40.56%.
Cc1cc(C)n(C2CNC2)n1 gave -6.521%.